Compound potency records, mixed from different reports. Data source: NIAID ChemDB in PubChem.

Common to all: whole-cell or culture tests; agent: Mycobacterium tuberculosis

Two numbers with a dash give a range or band. MIC bound: limit read from a one-dose screen. MIC50, MIC90 and the like: level of inhibition, or share of isolates inhibited. ECn is the concentration giving n% inhibition of infection, replication or growth. Lines come from different laboratories, so protocols vary. Inhibition is in % at the dose shown (toxicity tests: loss of growth or viability). Blank or dashed fields: not listed here.

smiles,strain,method,read-out,tested at,result
NNC(=O)c1ccncc1,H37Rv,resazurin,MIC,-,0.03 µM
O=C(O)c1cn(C2CC2)c2cc(N3CCN(Cc4ccc(CN5CCNCC5)cc4)CC3)c(F)cc2c1=O,H37Rv,-,inhibition,6.25 µg/mL,59%
COc1ccccc1C1C=C(c2c(O)c3ccccc3oc2=O)Nc2ccccc2S1,H37Rv,resazurin,MIC,-,<6.25 µg/mL
C[C@H]1COc2c(N3CCN(C)CC3)c(F)cc3c(=O)c(C(=O)O)cn1c23,Isolate 17,-,MIC,-,0.25 µg/mL
CCN(CC)CNc1ccc(/C=N/NC(=O)c2ccncc2)cc1,BCG,-,MIC,-,0.08 µg/mL
CCN(CC)C(=S)SCCC(N)=O,H37Rv,BACTEC,MIC,-,≥128 µg/mL
CC(C)(O)CC[C@@H](O)[C@](C)(O)[C@H]1CC[C@@]2(O)C3=CC(=O)[C@@H]4C[C@@H](O)[C@@H](O)C[C@]4(C)[C@H]3CC[C@]12C,-,broth dilution,MIC90,-,14.4 µg/mL
CCC(C)Sc1ccc(C(N)=S)cc1,H37Rv,-,MIC,-,311 µM
O=C(NNC1C=CCCC1)c1cccs1,BCG,-,MIC,-,3 µg/mL
CN1C(NNC(=O)c2cnccn2)=NS(=O)(=O)c2ccccc21,Clinical isolates drug-resistant,-,MIC,-,0.5–2 µg/mL
COC(=O)N/N=C(\c1nc2ccc([N+](=O)[O-])cc2[nH]c1=O)C(O)c1ccc(OC)c(OC)c1,H37Rv,resazurin,MIC bound,-,>6.25 µg/mL
CCCCS(=N)(=O)CC[C@H](N)C(=O)O,-,broth dilution,EC50,-,8 µg/mL
O=C(NC1=NS(=O)(=O)c2ccccc2N1c1ccccc1)c1ccc(Cl)nc1,Clinical isolates drug-resistant,-,MIC,-,>16 µg/mL
CO[C@H]1/C=C/O[C@@]2(C)Oc3c(C)c(O)c4c(O)c(c(/C=N/N5CCN(C)CC5)c(O)c4c3C2=O)NC(=O)/C(C)=C\C=C\[C@H](C)[C@H](O)[C@@H](C)[C@@H](O)[C@@H](C)[C@H](OC(C)=O)[C@@H]1C,Isolate 11,-,MIC,-,>32 µg/mL
O=C(NNC1=NS(=O)(=O)c2ccccc2N1c1ccccc1)c1cccnc1,Clinical isolates drug-resistant,-,MIC,-,>16 µg/mL
O=c1oc2ccccc2c(O)c1C1=CC(c2ccc(Cl)cc2)Sc2ccccc2N1,H37Rv,resazurin,MIC,-,<6.25 µg/mL
O=C(OCCN=c1c2ccccc2ccc2ccccc12)c1ccc([N+](=O)[O-])cc1,H37Rv,BACTEC,inhibition,12.5 µg/mL,0%
CCNC(=S)c1ccc(SC(C)C)cc1,H37Rv,-,MIC,-,334 µM
O=C(O)c1ccc2c(=O)c3cc([N+](=O)[O-])ccc3oc2c1,H37Rv,-,MIC,-,>32 µg/mL
S=C(Nc1ccccc1)Nc1ccc(-c2nnc(Nc3ccccc3)s2)cc1,H37Rv,-,inhibition,6.25 µg/mL,1%
CCCCCCCCO[C@H]1O[C@H](CO)[C@@H](O[C@H]2O[C@H](CO)[C@@H](OC)[C@@H]2O)[C@@H]1O,H37Rv,-,inhibition,6.25 µg/mL,14%
NC[C@H]1O[C@H](O[C@H]2[C@H](O)[C@@H](O[C@H]3O[C@H](CO)[C@@H](O)[C@H](N)[C@H]3O)[C@H](N)C[C@@H]2N)[C@H](O)[C@@H](O)[C@@H]1O,72 strains,BACTEC,EC50,-,2.5 µg/mL
CCn1cc(C(=O)O)c(=O)c2cc(F)c(N3CCN(C/C=C/CN4CCN(c5cc6c(cc5F)c(=O)c(C(=O)O)cn6C5CC5)CC4)CC3)cc21,H37Rv,-,inhibition,6.25 µg/mL,35%
CCCCCCCCO[C@H]1O[C@H](CO[C@@H]2[C@@H](OCCCCCCCC)O[C@H](CO)[C@H]2OC)[C@@H](O[C@@H]2O[C@H](O)[C@@H](OC)[C@@H]2O)[C@@H]1O,H37Rv,-,inhibition,6.25 µg/mL,20%
O=C(O)C1CCCCC1OC1CCCCC1O,-,broth dilution,MIC90,-,2.07 µg/mL
O=C1c2ccccc2C(=O)c2c3c(cc([N+](=O)[O-])c21)OCO3,H37Rv,resazurin,MIC bound,-,>6.25 µg/mL
Cc1ccc2oc(=O)c(C3=Nc4ccccc4NC(c4ccc(O)cc4)C3)c(O)c2c1,H37Rv,resazurin,MIC,-,>6.25 µg/mL
Cc1cc(/C=N/Nc2ccc3ccccc3n2)c(O)c2ncccc12,H37Rv,BACTEC,MIC bound,-,>12.5 µg/mL
COc1ccc(Nc2nnc(-c3ccc(NC(=S)Nc4ccccc4)cc3)s2)cc1,H37Rv,-,EC50,-,>6.25 µg/mL
CCCCN(C)C(=O)COc1cc2c(O)c3c(O)c(C)c4c(c13)C(=O)[C@@](C)(O/C=C/[C@H](OC)[C@@H](C)[C@@H](OC(C)=O)[C@H](C)[C@H](O)[C@H](C)[C@@H](O)[C@@H](C)/C=C/C=C(/C)C(=O)N2)O4,H37Rv,-,MIC,-,0.37 µg/mL
CCOc1ccc(Nc2nc(-c3ccccn3)cs2)nc1,H37Rv,fluorescence,EC90,-,62 µM
CCCCCCCSc1ccc(C(=S)NC)cc1,H37Rv,-,MIC,-,>284 µM
Fc1ccc(Nc2nnc(-c3ccc(NC(=S)Nc4ccccc4)cc3)s2)cc1,H37Rv,-,inhibition,6.25 µg/mL,0%
CCNC(=S)c1ccc(SCC)cc1,H37Rv,-,MIC,-,>355 µM
CCC(CNNC(=O)c1ccncc1)NNC(=O)c1ccccc1,BCG,-,MIC,-,0.5 µg/mL
C[C@H]1COC2(CCN(c3nc(=O)c4cc(C(F)(F)F)cc(-n5cc(Cc6ccccc6)nn5)c4s3)CC2)O1,H37Rv,resazurin,MIC,-,>1 µM
O=c1[nH]nc(-c2ccc([N+](=O)[O-])o2)o1,H37Rv,BACTEC,inhibition,12.5 µg/mL,19%
C[C@@H]1CN(c2c(F)c(N)c3c(=O)c(C(=O)O)cn(C4CC4)c3c2F)C[C@H](C)N1,Isolate 7,-,MIC,-,2 µg/mL
CCOC(=O)N1N=NC2C3OC(C[C@@]3(C#N)OC(C)=O)[C@H]21,H37Rv,BACTEC,inhibition,12.5 µg/mL,92%
COc1cc(C2C=C(c3c(O)c4ccccc4oc3=O)Nc3ccccc3S2)cc(OC)c1OC,H37Rv,resazurin,MIC,-,<6.25 µg/mL
CCC(=O)N1C(=O)C(C)C23c4cc(OC)c(OC)cc4C(=O)N2CCCN13,H37Rv,BACTEC,inhibition,12.8 µg/mL,-3%
CCCSc1ccc(C(N)=S)cc1,H37Rv,-,MIC,-,284 µM
CCCCC/C=C/NNC(=O)c1cccs1,BCG,-,MIC,-,6 µg/mL
Nc1nc(-c2cccs2)cs1,H37Rv,BACTEC,inhibition,6.25 µg/mL,0%
O=C(O)C1CCCC(C(=O)O)N1,-,broth dilution,MIC90,-,43 µg/mL
CCCCCCCCO[C@H]1O[C@H](CO[C@H]2O[C@H](CO)[C@@H](N)[C@@H]2O)[C@@H](O)[C@@H]1O,H37Rv,-,inhibition,6.25 µg/mL,4%
CCCSc1ccc(/C=C/C(N)=S)cc1,H37Rv,-,MIC,-,84 µM
CN1C(NNC(=O)c2cccnc2)=NS(=O)(=O)c2ccccc21,Clinical isolates drug-resistant,-,MIC,-,>16 µg/mL
Cc1cc(N)cc2c(=O)c3ccccc3oc12,H37Rv,-,MIC,-,>16 µg/mL
N[C@@H](C/[N+]([O-])=N/O)C(=O)O,H37Rv,BACTEC,MIC bound,-,>12.5 µg/mL
CCCC(C)Sc1ccc(C(N)=S)cc1,H37Rv,-,MIC,-,334 µM
CCC1=NOC(C)C1C(=O)OCc1ccccc1,H37Rv,BACTEC,MIC bound,-,>12.5 µg/mL
Cc1ccccc1Nc1nnc(-c2ccc(NC(=S)Nc3ccccc3)cc2)s1,H37Rv,-,inhibition,6.25 µg/mL,3%
CNC(=O)c1nc(C)c(CCC(=O)O)nc1NC,H37Rv,BACTEC,MIC bound,-,>12.5 µg/mL
CN[C@@H]1[C@H](O[C@H]2[C@H](O[C@H]3[C@H](O)[C@@H](O)[C@H](N=C(N)N)[C@@H](O)[C@@H]3N=C(N)N)O[C@@H](C)[C@]2(O)C=O)O[C@@H](CO)[C@H](O)[C@H]1O,H37Rv,-,MIC,-,≤0.5 µg/mL
Cc1ccc2oc3ccccc3c(=O)c2c1,H37Rv,-,MIC,-,>32 µg/mL
Cc1cc2c(cc1C)-c1c(oc3cc(C)c(C)cc13)-c1ccccc1C(=O)O2,H37Rv,BACTEC,MIC bound,-,>12.5 µg/mL
CN1C(NNC(=O)c2cnccn2)=NS(=O)(=O)c2ccc(Cl)cc21,Clinical isolates drug-sensitive,-,MIC,-,>16 µg/mL
O=C(NNS(=O)(=O)O)c1ccncc1,BCG,-,MIC,-,600 µg/mL
CO[C@H]1/C=C/O[C@@]2(C)Oc3c(C)c(O)c4c(O)c(cc(OCC(=O)N(Cc5ccccc5)Cc5ccccc5)c4c3C2=O)NC(=O)/C(C)=C\C=C\[C@H](C)[C@H](O)[C@@H](C)[C@@H](O)[C@@H](C)[C@H](OC(C)=O)[C@@H]1C,H37Rv,-,MIC,-,0.37 µg/mL
CC[C@H](CC[C@@H](C)[C@H]1CC[C@H]2[C@@H]3C(=O)C=C4C[C@@H](O)CC[C@]4(C)[C@H]3CC[C@]12C)C(C)C,-,broth dilution,MIC90,-,4.6 µg/mL
COC1(CO)C(=O)N(C)CC(=O)N1C,H37Rv,BACTEC,MIC,-,6.25 µg/mL
O=c1oc2ccccc2c(O)c1C1=CC(c2ccc(O)cc2)Sc2ccccc2N1,H37Rv,resazurin,MIC,-,<6.25 µg/mL
C=C(O)C1=C(C(=C)N(C)C)CC2=C(C1=O)C(O)CCC(C(=O)NCN1CCN(c3c(F)cc4c(c3OC)N(C(C)C)C=C(C(=O)O)C4O)CC1C)C(=O)C(N(C)C)CC2,-,broth dilution,MIC90,-,0.237 µg/mL
CN1CCN(c2nc(Oc3ccc(C#N)cc3)nc(-c3ccc(N4C(=O)CSC4c4ccccc4)cc3)n2)CC1,H37Rv,agar,MIC,-,200 µg/mL
CCC(C)c1cnc(CC(C)C)c(=O)n1O,H37Rv,BACTEC,inhibition,12.5 µg/mL,0%
C#CCN(CCC)C(=O)COc1cc2c(O)c3c(O)c(C)c4c(c13)C(=O)[C@@](C)(O/C=C/[C@H](OC)[C@@H](C)[C@@H](OC(C)=O)[C@H](C)[C@H](O)[C@H](C)[C@@H](O)[C@@H](C)/C=C/C=C(/C)C(=O)N2)O4,H37Rv,-,MIC,-,0.37 µg/mL
O=C(NNC1=NS(=O)(=O)c2ccccc2N1c1ccccc1)c1cnccn1,H37Rv (ATCC 27294),-,MIC,-,8 µg/mL
CCCCCCCCO[C@H]1O[C@H](CO[C@H]2O[C@H](CO)[C@@H](N=[N+]=[N-])[C@@H]2O)[C@@H](O)[C@@H]1O,H37Rv,-,EC50,-,>6.25 µg/mL
N#Cc1ccc2c(=O)c3ccccc3oc2c1,H37Rv,-,MIC,-,>8 µg/mL
O=c1c2sc3ccccc3sc=2c(=O)c2c(Cl)c(Cl)c(Cl)c(Cl)c12,H37Rv,BACTEC,MIC bound,-,>6.25 µg/mL
CN[C@@H]1[C@@H](O)[C@@H](O[C@@H]2[C@@H](O)[C@H](O[C@H]3O[C@H](CN)CC[C@H]3N)[C@@H](N)C[C@H]2N)OC[C@]1(C)O,H37Rv,-,MBC,-,16 µg/mL
CCN1C(NNC(=O)c2cnccn2)=NS(=O)(=O)c2ccccc21,Clinical isolates drug-resistant,-,MIC,-,8–16 µg/mL
O=C(O)c1cn(C2CC2)c2cc(N3CCN(C/C=C/CN4CCNCC4)CC3)c(F)cc2c1=O,H37Rv,-,inhibition,6.25 µg/mL,33%
CN(C)CCNc1ccc(N)c2sc3ccccc3c(=O)c12,H37Rv,BACTEC,inhibition,12.5 µg/mL,82%
Nc1ccc2oc3ccc(C(=O)O)cc3c(=O)c2c1,H37Rv,-,MIC,-,>32 µg/mL
CNC(=S)NNc1ncnc2c1ncn2-c1ccc(C)cc1,H37Rv,BACTEC,MIC bound,-,>12.5 µg/mL
CO[C@H]1/C=C/O[C@@]2(C)Oc3c(C)c(O)c4c(O)c(cc(O)c4c3C2=O)NC(=O)/C(C)=C\C=C\[C@H](C)[C@H](O)[C@@H](C)[C@@H](O)[C@@H](C)[C@H](OC(C)=O)[C@@H]1C,H37Rv,-,MIC,-,0.05 µg/mL
COc1ccc(/C=N/Nc2nnc3c4ccccc4c4ncccc4c3n2)cc1,H37Rv,BACTEC,MIC bound,-,>6.25 µg/mL
CSc1ccc(C(N)=S)cc1,H37Rv,-,MIC,-,328 µM
O=c1c2ccccc2nc2sc3nc4ccccc4c(=O)n3n12,H37Rv,BACTEC,inhibition,12.5 µg/mL,-6%
O=c1oc2ccccc2c(O)c1C1=CC(c2cccc(Cl)c2)Sc2ccccc2N1,H37Rv,resazurin,MIC,-,<6.25 µg/mL